Pooled drug test results. Numbers come from NIAID ChemDB, via PubChem.

Shared fields: tests in culture; organism: HIV-1

Neighbouring rows are from separate reports.

structure	measure	strain or isolate	read by	cell line	mutations	value
CCc1nc2ccccn2c1C(=O)c1cccs1	EC50	IIIB	RT activity	PBMC		0.7 µM
CCCCCCCCCCCCCCCCCCCCCCC(=O)O[C@@H]1[C@@H](C)[C@@]2(O)[C@@H](C=C(COC(C)=O)C[C@]3(O)C(=O)C(C)=C[C@@H]23)[C@@H]2C(C)(C)[C@]12O	EC50	NL4-3	p24 / ELISA	C8166	gp41 (36G) fusion inhibitor resistant (V38A N42T)	6.915 µM
[N-]=[N+]=NC[C@]1(CO)C[C@@H](n2ccc(=O)[nH]c2=O)CO1	EC50	IIIB		MT-4		>100 µM
Cc1cn([C@H]2C[C@H](N=[N+]=[N-])[C@@H](CO)O2)c(=O)[nH]c1=O	EC50	RF	RT activity	CEM + CEM-SS		0.022 µM
CC(C)[C@H](NC(=O)c1ccccn1)C(=O)N[C@@H](Cc1ccccc1)[C@H](O)[C@H](O)[C@H](Cc1ccccc1)NC(=O)[C@@H](NC(=O)c1ccccn1)C(C)C	EC50	P19 (PR-R8Q)	p24	MT-4	PR-R8Q	4 µM
CC[C@H](C)[C@H](NC(=O)[C@H](C/C=C/c1ccccc1)C[C@H](O)[C@H](Cc1ccccc1)NC(=O)OC(C)(C)C)C(=O)NCc1nc2ccccc2[nH]1	EC50	RF	antigen	H9		<0.012 µM
O=C(Nc1ccc(Cl)cc1)c1ccccc1SSc1ccccc1C(=O)Nc1ccc(Cl)cc1	EC50		cytopathic effect / XTT	CEM		>8 µM
C#C[C@@]1(CO)C=C[C@H](n2cc(C)c(=O)[nH]c2=O)O1	EC50	IIIB	cytopathic effect / MTT	MT-2		0.5 µM
CCN1c2ccccc2Sc2ccccc21	EC50	IIIB	cytopathic effect / MTT	MT-4		>500 µg/mL
CC(C)(C)OC(=O)N1CCCN(C(=O)OC(C)(C)C)CCN(C(=O)OC(C)(C)C)CCCN(CCCCC(=O)Nc2ccn([C@H]3CC[C@@H](CO)O3)c(=O)n2)CC1	EC50		syncytia	MT-4		0.05 µM
COc1ccc2c(c1)N(C(=O)OC(C)C)[C@@H](CSC)C(=S)N2	EC50	19/34-TI TIBO-resistant (RT A98G L100I)	p24	PBL	RT-A98G L100I	0.05 µM
Cc1ccnc2c1NC(=O)c1cccnc1N2C1CC1	EC50	IIIB	MTT	MT-4	Y181C	3.785 µM
Oc1cc(O)c2c(c1)O[C@H](c1ccc(O)c(O)c1)[C@@H](O)C2	EC50	IIIB	ELISA	C8166		4 µg/mL
Nc1ccn([C@@H]2C[Se][C@H](CO)O2)c(=O)n1	EC50	LAV	RT activity	PBMC		>100 µM
Cc1cc(C(O)c2ccc3ccccc3c2)nc(Nc2ccc(C#N)cc2)n1	EC50	IIIB	MTT	MT-4		5.458 µM
CC(C)=CCC(Cc1c(O)cc(O)c2c1O[C@H](c1ccc(O)cc1O)CC2=O)C(=O)O	EC50	IIIB	cytopathic effect / MTT	MT-4		4 µg/mL
NS(=O)(=O)c1ccc(NC(=O)c2cccc(SSc3cccc(C(=O)Nc4ccc(S(N)(=O)=O)cc4)c3)c2)cc1	EC50		cytopathic effect / XTT	CEM		>100 µM
CCc1nc2ccccn2c1C(=O)c1ccc(O)cc1	EC50	LAI	RT activity	CEM + CEM-SS		>100 µM
Oc1cc(O)c2c(c1)O[C@H](c1cc(O)c(O)c(O)c1)[C@@H](O)C2	EC50	IIIB	ELISA	C8166		5 µg/mL
CC(=O)NCCCN1c2ccccc2Sc2ccc(Cl)cc21	EC50	IIIB	cytopathic effect / MTT	MT-4		>500 µg/mL
O=C(O)P(=O)(O)O	EC50	IIIB	p24 / ELISA	H9		5 µM
Cc1cn([C@H]2C=C[C@@H](COC(=O)CCCC(=O)N3CCCN(C(=O)OC(C)(C)C)CCN(C(=O)OC(C)(C)C)CCCN(C(=O)OC(C)(C)C)CC3)O2)c(=O)[nH]c1=O	EC50		syncytia	MT-4		10 µM
O=C(O)C(=O)CC(=O)c1cc2ccccc2c2ccccc12	EC90	LAI	RT activity	PBMC		>100 µM
CC(C)CC(NC(=O)c1ccccc1SSc1ccccc1C(=O)NC(CC(C)C)C(=O)O)C(=O)O	EC50		cytopathic effect / XTT	CEM		8.9 µM
Cc1cn([C@H]2C[C@H](N=[N+]=[N-])[C@@H](CO)O2)c(=O)[nH]c1=O	EC50	LAV-1	plaque count	PBMC(PHA STIM.) + PBMC		0.006 µM
O=C(O)C(=O)CC(=O)c1c2ccccc2cc2ccccc12	EC90	LAI	RT activity	PBMC		>100 µM
O=C(O)/C=C/c1ccc[c]([Sb](=[O])([OH])[OH])c1	EC50	93IN101 R5 clinical isolate	β-galactosidase	MAGI		<10 µM
Cc1cn([C@H]2C[C@H](N=[N+]=[N-])[C@@H](CO)O2)c(=O)[nH]c1=O	EC50	RF	cytopathic effect / XTT	CEM + CEM-SS		0.003–0.004 µM
CC(C)=CCc1cc([C@@H]2CC(=O)c3c(O)cc(O)c(CC=C(C)C)c3O2)ccc1O	EC50	IIIB	cytopathic effect / MTT	MT-4		22 µg/mL
Nc1cccc(CN2C(=O)N(Cc3ccc4[nH]nc(-c5ccc(F)cc5)c4c3)[C@H](Cc3ccccc3)[C@H](O)[C@@H](O)[C@H]2Cc2ccccc2)c1	EC90	Ritonavir-resistant (PR M46I L63P A71V V82F I84V)		MT-2	PR-M46I L63P A71V V82F I84V	>5 µM
O=C(Nc1ccc([N+](=O)[O-])cc1)c1ccccc1SSc1ccccc1C(=O)Nc1ccc([N+](=O)[O-])cc1	EC50		cytopathic effect / XTT	CEM		4 µM
Nc1ccn([C@H]2S[C@@H](CO)C=C2F)c(=O)n1	EC90	xxBRU		PBMC		1.4 µM
Cc1ccc(/C=C/c2cc(C)c(Oc3ccnc(Nc4ccc(C#N)cc4)n3)c(C)c2)cc1	EC50	IIIB	MTT	MT-4	K103N	0.189 µM
O=C(O[C@@H]1Cc2c(O)cc(O)cc2O[C@@H]1c1ccc(O)c(O)c1)c1cc(O)c(O)c(O)c1	EC50	IIIB	ELISA	C8166		1 µg/mL
O=C(NC(C(=O)O)c1ccccc1)c1ccccc1SSc1ccccc1C(=O)NC(C(=O)O)c1ccccc1	EC50		cytopathic effect / XTT	CEM		25 µM
Cc1cn([C@H]2C=C[C@@H](CO)O2)c(=O)[nH]c1=O	EC50	IIIB	RT activity	MT-4		1.6 µM
CC(C)=CCC(Cc1c(O)cc(O)c2c1O[C@H](c1cc3c(cc1O)O[C@@H](c1ccc(O)cc1)[C@@H]3c1cc(O)cc(O)c1)CC2=O)C(=O)O	EC50	IIIB	cytopathic effect / MTT	MT-4		>200 µg/mL
Nc1ccn([C@@H]2O[C@H](CO)C=C2F)c(=O)n1	EC90	xxBRU		PBMC		8 µM
CC(C)(C)NC(=O)[C@@H]1CN(Cc2cccnc2)CCN1C[C@@H](O)C[C@@H](Cc1ccccc1)C(=O)N[C@H]1c2ccccc2C[C@H]1O	EC50	RF	cytopathic effect / XTT	CEM + CEM-SS		0.004 µM
O=C1c2ccccc2C(=O)N1CCCN1c2ccccc2Sc2ccc(Cl)cc21	EC50	IIIB	cytopathic effect / MTT	MT-4		>500 µg/mL
CC(C)=CCC/C(C)=C/Cc1c(O)cc(O)c2c1O[C@H](c1ccc(O)cc1)CC2=O	EC50	IIIB	cytopathic effect / MTT	MT-4		>200 µg/mL
CC(C)(C)OC(=O)N1CCCN(C(=O)OC(C)(C)C)CCN(C(=O)OC(C)(C)C)CCCN(CCCCC(=O)OC[C@@H]2CC[C@H](n3cnc4c(=O)[nH]cnc43)O2)CC1	EC50		syncytia	MT-4		10 µM
CCc1nc2sccn2c1C(=O)c1ccc(O)cc1	EC50	IIIB	RT activity	MT-4		>42 µM
O=C(Oc1cc(O)c2c(c1)O[C@H](c1ccc(O)c(O)c1)[C@@H](O)C2)c1cc(O)c(O)c(O)c1	EC50	IIIB	ELISA	C8166		10 µg/mL
CC(C)=CCC/C(C)=C/Cc1c(O)cc2c(c1O)C(=O)C[C@@H](c1c(O)cc(O)cc1O)O2	EC50	IIIB	cytopathic effect / MTT	MT-4		>200 µg/mL
N#Cc1ccc(Nc2nccc(C(O)c3cccc4ccccc34)n2)cc1	EC50	IIIB	MTT	MT-4		0.071 µM
Nc1nc(=O)n([C@H]2C=C[C@@H](CO)O2)cc1F	EC50			PBMC		<0.07 µM
CC(C)(C)OC(=O)N1CCCN(C(=O)OC(C)(C)C)CCN(C(=O)OC(C)(C)C)CCCN(CCCCC(=O)OC[C@H]2O[C@@H](n3ccc(N)nc3=O)CS2)CC1	EC50		syncytia	MT-4		10 µM
Nc1ncnc2c1ncn2[C@@H]1C[C@H](CO)[C@@H](F)C1	EC50	IIIB	p24 / ELISA	H9		10 µg/mL
O=C(O)CCNC(=O)c1ccccc1SSc1ccccc1C(=O)NCCC(=O)O	EC50		cytopathic effect / XTT	CEM		7.8 µM
CCc1nc2ncccn2c1C(=O)c1ccco1	EC50	LAI	RT activity	CEM + CEM-SS		>100 µM
CC(C)=CCN1Cc2cc(Cl)cc3[nH]c(=S)n(c23)C[C@@H]1C	EC95			MT-4	RT-L74V L100I	>3 µM
COC(=O)NCCCN1c2ccccc2Sc2ccc(Cl)cc21	EC50	IIIB	cytopathic effect / MTT	MT-4		>500 µg/mL
NC[C@H]1O[C@@H](n2cnc3c(N)ncnc32)[C@H](O)[C@@H]1F	EC50	IIIB	p24 / ELISA	H9		1 µg/mL
OCC(S)CS	EC50	IIIB-C-3	RT activity	MOLT-4		<5 µg/mL
CS(=O)(=O)NCCCN1c2ccccc2Sc2ccc(Cl)cc21	EC50	IIIB	cytopathic effect / MTT	MT-4		>500 µg/mL
C[C@H]1O[C@H](Oc2c(-c3ccc(O)cc3)oc3c(c(O)cc4oc(C(C)(C)O)cc43)c2=O)[C@@H](O)[C@@H](O)[C@@H]1O	EC50	NL4-3	p24 / ELISA	MT-4		>20 µg/mL
C[C@@H]1O[C@@H](Oc2c(-c3ccc(O)c(O)c3)oc3cc(O)cc(O)c3c2=O)[C@H](O)[C@H](O)[C@H]1O	EC50	IIIB	ELISA	C8166		50 µg/mL
Cc1cn([C@H]2C[C@H](N=[N+]=[N-])[C@@H](CO)O2)c(=O)[nH]c1=O	EC50	IIIB	MTT	MT-4		<0.008 µM
Cc1cc(C#Cc2cccc(N)c2)cc(C)c1Oc1ccnc(NC2CCN(Cc3ccc(C(N)=O)cc3)CC2)n1	EC50	IIIB	MTT	MT-4	Y181C	0.032 µM
O=c1c(O)c(-c2ccc(O)c(O)c2)oc2cc(O)cc(O)c12	EC50	NL4-3	p24 / ELISA	MT-4		>20 µg/mL
Cc1cc(C#Cc2ccc(C(=O)O)cc2)cc(C)c1Oc1ccnc(Nc2ccc(C#N)cc2)n1	EC50	IIIB	MTT	MT-4	K103N	0.138 µM
CC(C)C[C@H](NC(=O)[C@H](Cc1ccccc1)C[C@H](O)[C@H](Cc1ccccc1)NC(=O)OC(C)(C)C)C(N)=O	EC50	IIIB	antigen	H9		<6 µM
CCc1nc2ncccn2c1C(=O)c1ccccc1	EC50	LAI	RT activity	CEM + CEM-SS		62 µM
CN(C)c1ccc(/C=C2\SC(N=Nc3c(O)[nH]c4ccccc34)=NC2=O)cc1	EC50	NL4-3				2.6 µM
Nc1ccn([C@H]2CC[C@@H](CO)O2)c(=O)n1	EC50	IIIB	cytopathic effect / MTT	MT-4		0.5 µM
COc1ccc([C@@H]2CC(=O)c3c(O)cc(O)cc3O2)cc1O	EC50	IIIB	cytopathic effect / MTT	MT-4		>200 µg/mL
O=C(Nc1ccccc1O)c1ccccc1SSc1ccccc1C(=O)Nc1ccccc1O	EC50		cytopathic effect / XTT	CEM		>10 µM
Cc1cn([C@H]2C=C[C@@H](CO)O2)c(=O)[nH]c1=O	EC50	IIIB	cytopathic effect / MTT	MT-2		1.4 µM
Nc1ncnc2c1ncn2CCOCP(=O)(O)O	EC50		cytopathic effect / MTT	CEM + CEM-SS		>20 µM
CC[C@H](C)[C@H](NC(=O)[C@H](Cc1ccccc1)C[C@H](O)[C@H](Cc1ccccc1)NC(=O)OC(C)(C)C)C(=O)NCc1ccccc1	EC50	IIIB	antigen	H9		<1.5 µM
CC(C)(C)OC(=O)N[C@@H](Cc1ccccc1)[C@H](O)CNC[C@@H](O)[C@H](Cc1ccc(OCC(=O)N2CCOCC2)cc1)NC(=O)OC(C)(C)C	EC50	RF	cytopathic effect / XTT	CEM + CEM-SS		0.1–0.18 µM

9 of the rows above, restated:

structure | measure | strain or isolate | read by | cell line | mutations | value
CCc1nc2ccccn2c1C(=O)c1cccs1 | EC50 | IIIB | RT activity | PBMC |  | 0.7 µM
N#Cc1ccc(Nc2nccc(C(O)c3cccc4ccccc34)n2)cc1 | EC50 | IIIB | MTT | MT-4 |  | 0.071 µM
Nc1nc(=O)n([C@H]2C=C[C@@H](CO)O2)cc1F | EC50 |  |  | PBMC |  | <0.07 µM
COc1ccc2c(c1)N(C(=O)OC(C)C)[C@@H](CSC)C(=S)N2 | EC50 | 19/34-TI TIBO-resistant (RT A98G L100I) | p24 | PBL | RT-A98G L100I | 0.05 µM
O=C(O)C(=O)CC(=O)c1c2ccccc2cc2ccccc12 | EC90 | LAI | RT activity | PBMC |  | >100 µM
CC(C)C[C@H](NC(=O)[C@H](Cc1ccccc1)C[C@H](O)[C@H](Cc1ccccc1)NC(=O)OC(C)(C)C)C(N)=O | EC50 | IIIB | antigen | H9 |  | <6 µM
O=C(Oc1cc(O)c2c(c1)O[C@H](c1ccc(O)c(O)c1)[C@@H](O)C2)c1cc(O)c(O)c(O)c1 | EC50 | IIIB | ELISA | C8166 |  | 10 µg/mL
O=C(O)C(=O)CC(=O)c1cc2ccccc2c2ccccc12 | EC90 | LAI | RT activity | PBMC |  | >100 µM
Nc1ccn([C@@H]2O[C@H](CO)C=C2F)c(=O)n1 | EC90 | xxBRU |  | PBMC |  | 8 µM

Two numbers with a dash give a range or band. An empty or dashed field is not shown. ECn is the concentration giving n% inhibition of infection, replication or growth.